Compound potency records, mixed from different reports. Data source: NIAID ChemDB in PubChem.

All rows: growth or infection tests; organism: Mycobacterium tuberculosis

Inhibition is in % at the dose shown (toxicity tests: loss of growth or viability). Zone: diameter of growth inhibition. Fold resistance: result on the changed form divided by that on wild type. A number after MIC or MFC names an inhibition level or a share of isolates. For "inactive" no cut-off is given. Blank or dashed fields: not listed here. Neighbouring rows are from separate reports. a–b is a range or a potency band. MIC bound: limit read from a one-dose screen.

SMILES | strain | dose | changes | conditions | read by | read-out | result
Cc1c(N2C[C@@H](N)C3(CC3)C2)c(F)cc2c(=O)c(C(=O)O)cn([C@@H]3C[C@@H]3F)c12 | 71 (RFP-resistant) |  |  |  |  | MIC | 0.2 µg/mL
O=C(NC(=S)Nc1ncc([N+](=O)[O-])s1)c1ccccc1C(=O)NC(=S)Nc1ncc([N+](=O)[O-])s1 | H37Rv | 12.5 µg/mL |  |  | BACTEC | inhibition | 1%
O=[N+]([O-])c1cn2c(n1)OC[C@@H](OCc1ccc(C#Cc3ccc(C(F)(F)F)cc3)cn1)C2 |  |  |  |  | low oxygen | MIC90 | 12 µM
S=C(Nc1ccc(Cl)c(Cl)c1)c1ccc(Cl)cc1 | H37Rv |  |  |  |  | MIC | 15 µM
Cc1c(F)c(N2CCNC(C)C2)cc2c1c(=O)c(C(=O)O)cn2C1CC1 | 250 isolates |  |  |  |  | MIC50 | 1 µg/mL
Cc1ccc(NC(=S)c2cccc(Br)c2)cc1 | H37Rv |  |  |  |  | MIC | 61.9 µM
O=C(O)c1nc(C2C3CC4CC(C3)CC2C4)[nH]c1C1C2CC3CC(C2)CC1C3 | H37Rv | 6.25 µg/mL |  |  |  | inhibition | 0%
Cc1cc(O)c(C(C)C)cc1N1C(=O)C(Cl)C1c1ccccc1Cl | H37Rv | 100 µg/mL |  |  |  | inhibition | inactive
O=c1[nH]c2ccc([N+](=O)[O-])cc2[nH]1 | H37Rv |  |  |  | resazurin | MIC bound | >6.25 µg/mL
O=[N+]([O-])c1cn2c(n1)OC[C@@H](OCc1ccc(C#Cc3ccc(C(F)(F)F)cn3)nc1)C2 |  |  |  |  | resazurin | MIC90 | 0.26 µM
S=C(Nc1ccccc1)c1ccc(Cl)cc1 | H37Rv |  |  |  |  | MIC | 125 µM
N/N=C(/Cc1ccccc1)NNC(N)=S | H37Rv | 12.5 µg/mL |  |  | BACTEC | inhibition | 36%
COC(=O)C1=C(C)N(c2ccc(OC)cc2)C(C)=C(C(=O)OC)C1c1ccc(OC)c(O)c1 | H37Rv |  |  |  |  | MIC | >6.25 µg/mL
Cc1nn(C(=S)S)c(C)c1N=Nc1ccccc1Cl | H37Rv | 6.25 µg/mL |  |  | resazurin | inhibition | 97%
CN(C)Cc1ccccc1 | H37Rv |  |  |  |  | MIC | >1848 µM
S=C(Nc1ccc(C2CCCCC2)cc1)c1ccccc1 | H37Rv |  |  |  |  | MIC | 31 µM
NCC[C@H](O)C(=O)N[C@@H]1C[C@H](N)[C@@H](O[C@H]2O[C@H](CN)[C@@H](O)[C@H](O)[C@H]2O)[C@H](O)[C@H]1O[C@H]1O[C@H](CO)[C@@H](O)[C@H](N)[C@H]1O | H37Rv |  |  |  | broth dilution | MIC99 | 0.5 µg/mL
CCC1CN(c2c(F)cc3c(=O)c(C(=O)O)cn([C@@H]4C[C@@H]4F)c3c2OC)CCN1 | 68 (RFP-susceptible) |  |  |  |  | MIC | 0.25 µg/mL
O=C(O)c1cnc(Cl)cn1 | CDC-BP-98 |  |  |  |  | MIC | 128 µg/mL
COC(=O)CNC(=O)c1nc(C(C)(C)C)[nH]c1C(C)(C)C | H37Rv | 6.25 µg/mL |  |  |  | inhibition | 11%
Cc1ccccc1-n1c2nc(=O)n(C)c(=O)c-2nc2ccccc21 | H37Rv |  |  |  | BACTEC | MIC bound | >12.5 µg/mL
CC(=O)SCC1CS1 | H37Rv |  |  |  |  | MIC | 0.4–0.8 µg/mL
COC(=O)C1(C)CCCC2(C)c3cc(C(C)=O)c(C(C)C)cc3CCC12 | H37Rv | 12.5 µg/mL |  |  | BACTEC | inhibition | 88%
C/C=C/C/C=C/CCC(=O)[C@H]1O[C@H]1C(N)=O | Isolate 8H31 |  |  |  |  | MIC | 3 µg/mL
CCCCOC(=O)c1ccc(Nc2cc(C)nc3ccc(OC)cc23)cc1 | H37Rv |  |  |  |  | MIC100 | 2 µg/mL
COc1ccc(C2C(C(=O)Nc3cccc([N+](=O)[O-])c3)=C(C)NC(C)=C2C(=O)Nc2cccc([N+](=O)[O-])c2)cc1OC | H37Rv |  |  |  |  | MIC | >6.25 µg/mL
Cc1cc(O)c(C(C)C)cc1N1C(=O)C(C)SC1c1ccc(O)cc1 | H37Rv | 100 µg/mL |  |  |  | inhibition | inactive
CCc1ccc([C@H]2C[C@@H](C(F)(F)F)n3ncc(C(=O)NCc4ccc(OC)cc4)c3N2)cc1 | H37Rv |  | MmpL3: Phe644Cys |  | fluorescence | fold resistance | >8
COc1cccc2c1C(=O)c1c(O)c3c(c(O)c1C2=O)C[C@@](O)(/C(C)=N/NC(=O)c1ccc(Cl)cc1)C[C@H]3O[C@H]1C[C@H](N)[C@H](O)[C@H](C)O1 | H37Rv |  |  |  | BACTEC | MIC | ≥12.5 µg/mL
CC(C)c1ncc(C(=O)O)[nH]1 | H37Rv |  |  |  |  | MIC | >6.25 µg/mL
O=C1c2ccccc2C(=O)c2cc(C[P+](c3ccccc3)(c3ccccc3)c3ccccc3)ccc21 | FJ05195 |  | Extensively drug-resistant |  | resazurin | MIC | 1 µg/mL
CC(=O)N1C(=O)CC23c4cccc([N+](=O)[O-])c4C(=O)N2CCCN13 | H37Rv |  |  |  | BACTEC | MIC | ≥12.8 µg/mL
COC(=O)CCc1cnc(C2CCCCC2)[nH]1 | H37Rv |  |  |  |  | MIC | >6.25 µg/mL
NC(=O)c1cnccn1 | Isolate 8251 |  |  |  |  | MIC | 900 µg/mL
C/C(=N\Nc1ncc(/C(C)=N/N=C(N)N)c(C)n1)c1cnc(NN)nc1C | H37Rv | 12.5 µg/mL |  |  | BACTEC | inhibition | 31%
NNC(=O)c1ccncc1 | CSU H37Rv |  |  |  | BACTEC | MIC | 0.023 µg/mL
NNC(=O)c1ccncc1 | 1620-6 |  |  |  |  | MIC | 0.05 µg/mL
S=C(Nc1ccccc1)N(Cc1ccco1)c1ccc(Cl)c(Cl)c1 |  | 1000 µg/mL |  |  | visual reading | zone | 18.88 mm
Cc1cc(O)c(C(C)C)cc1N1C(=O)C(CC(=O)O)SC1c1ccc(O)cc1 | H37Rv | 100 µg/mL |  |  |  | inhibition | inactive
Cc1ccc(C(=S)Nc2ccc(Br)cc2)cc1 | H37Rv |  |  |  |  | MIC | 125 µM
CC(C)N(C(=S)Nc1ccccc1)c1ccc(Cl)c(Cl)c1 |  |  |  |  | visual reading | MIC | 400 µg/mL
S=C(Nc1ccc(Cl)c(Cl)c1)c1ccccc1 | H37Rv |  |  |  |  | MIC | 15 µM
CC[C@@H](CO)NCCN[C@@H](CC)CO | H37Rv |  |  |  | broth dilution | MIC99 | 1 µg/mL
COc1ccc2nc(C)cc(Nc3ccc(Oc4ccc(Cl)c5ccccc45)c(Cl)c3)c2c1 | H37Rv |  |  |  |  | MIC100 | 1 µg/mL
O=[N+]([O-])c1cn2c(n1)OC[C@@H](OCc1ccc(C#Cc3ccc(C(F)(F)F)cc3)nc1)C2 |  |  |  |  | low oxygen | MIC90 | 2.5 µM
COc1ccc(C(=S)Nc2ccc(Cl)c(Cl)c2)cc1 | H37Rv |  |  |  |  | MIC | 31 µM
O=[N+]([O-])c1cn2c(n1)OC[C@@H](OCc1ccc(S(=O)(=O)NCc3ccc(OC(F)(F)F)cc3)cc1)C2 |  |  |  |  | resazurin | MIC90 | 0.9 µM
CC1=NC(=O)C(=Cc2ccc(O)cc2)N1c1cc(C(C)C)c(O)cc1C | H37Rv | 100 µg/mL |  |  |  | inhibition | inactive
C[C@@H]1CC[C@@H]([C@@H](C)[C@H]2[C@@H](O)C[C@H]3[C@@H]4CC[C@H]5C[C@@H](O)CC[C@]5(C)[C@H]4CC[C@]23C)NC1 | H37Rv |  |  |  | BACTEC | MIC | ≥128 µg/mL
S=C(Nc1ccccc1)c1cccc(Br)c1 | H37Rv |  |  |  |  | MIC | 61.9 µM
O=[N+]([O-])c1cn2c(n1)OC[C@@H](OCc1ccnc(N3CCC(Oc4ccc(C(F)(F)F)nc4)CC3)c1)C2 |  |  |  |  | low oxygen | MIC90 | 8.4 µM
CC(C)c1ncc(C(=O)NN)[nH]1 | H37Rv | 6.25 µg/mL |  |  |  | inhibition | 0%
O=[N+]([O-])c1cn2c(n1)OC[C@@H](OCc1ccc(Oc3ccc(F)cc3)nc1)C2 |  |  |  |  | low oxygen | MIC90 | 2 µM
CC1COc2c(N3CCN(C)CC3)c(F)cc3c(=O)c(C(=O)O)cn1c23 | 250 isolates |  |  |  |  | MIC90 | 2 µg/mL
COc1ccc(C2C(C(=O)Nc3ccc(F)cc3)=C(C)NC(C)=C2C(=O)Nc2ccc(F)cc2)cc1 | H37Rv |  |  |  |  | MIC | >6.25 µg/mL
COc1ccc(NC(=S)c2cccc(Br)c2)cc1 | H37Rv |  |  |  |  | MIC | 61.9 µM
O=C(N/N=C/c1c(F)c(F)c(F)c(F)c1F)c1cnc(C2C3CC4CC(C3)CC2C4)[nH]1 | H37Rv | 6.25 µg/mL |  |  |  | inhibition | 5%
O=[N+]([O-])c1cn2c(n1)OC[C@@H](OCc1ccc(C#Cc3ccc(C(F)(F)F)nc3)nc1)C2 |  |  |  |  | low oxygen | MIC90 | 4.7 µM
CCC(C)N(C(=S)Nc1ccccc1)c1ccc(F)c(Cl)c1 |  | 1000 µg/mL |  |  | visual reading | zone | 11.04 mm
C[n+]1c(-c2ccc(Cl)cc2Cl)c2cc(N)ccc2c2ccccc21 | H37Rv |  |  |  | BACTEC | MIC bound | >12.5 µg/mL
COc1ccc(/C=N/NC(=O)c2nc(C3C4CC5CC(C4)CC3C5)[nH]c2C2C3CC4CC(C3)CC2C4)cc1 | H37Rv | 6.25 µg/mL |  |  |  | inhibition | 0%
CCN(CC)C(=S)Sc1nsc(SC(=S)N(CC)CC)c1C#N | H37Rv |  |  |  | BACTEC | MIC | 32 µg/mL
COc1ccc(C2C(C(=O)Nc3ccc(F)c(Cl)c3)=C(C)NC(C)=C2C(=O)Nc2ccc(F)c(Cl)c2)cc1 | H37Rv |  |  |  |  | MIC | >6.25 µg/mL
CCCCCCCCCCCCCCCCNC(=O)C1=CCN(C)[C@@H]([C@H](O[C@@H]2O[C@H](CN)[C@@H](O)[C@H]2O)[C@H]2O[C@@H](n3ccc(=O)[nH]c3=O)[C@H](O)[C@@H]2O)C(=O)N1C | H37Rv |  |  |  |  | MIC | 1.56 µg/mL
S=C(Nc1ccccc1)N(c1ccc(Cl)c(Cl)c1)C1CCCCC1 |  |  |  |  | visual reading | MIC | 400 µg/mL
Cc1ccc(NC(=O)CCl)cc1[N+](=O)[O-] | H37Rv | 12.5 µg/mL |  |  | BACTEC | inhibition | 86%
Cc1ccc2sc(N(CCCn3ccnc3)C(=O)c3ccco3)nc2c1C | H37Rv |  |  |  |  | MIC100 | 1 µg/mL
CCOC(=O)[C@H]1O[C@@H]([C@@]2(C)O[C@]3(O[C@]4(C=C[C@H]3O)O[C@H]([C@@H](C)C(=O)[C@@H](C)[C@@H](O)[C@H](C)C[C@H](C)c3c(Cl)cc(C)c(O)c3C(=O)O)[C@@H](C)C[C@H]4C)[C@H](C)[C@H]2OC)C[C@H]1O | H37Rv |  |  |  | BACTEC | MIC bound | ≤12.5 µg/mL
CCN(CC)CCCN=c1cc2n(-c3ccc(Cl)c(Cl)c3)c3ccccc3nc-2cc1Nc1ccc(Cl)c(Cl)c1 | 2227 |  |  | multidrug-resistant |  | MIC | 0.25 µg/mL
O=c1[nH][nH]c(=O)c2c1[nH]c(=S)n2Cc1ccccc1 | H37Rv |  |  |  | BACTEC | MIC bound | >12.5 µg/mL
CNC(=S)N(c1ccc(Cl)c(Cl)c1)C(C)c1cccs1 |  | 1000 µg/mL |  |  | visual reading | zone | 15.4 mm
O=C1CCCCCCCCCCCCCCCO1 | PZA-R |  |  |  |  | MIC | >12.8 µg/mL
O=[N+]([O-])c1cn2c(n1)OC[C@@H](OCc1ccc(/C=C/c3ccc(F)cc3)cc1)C2 |  |  |  |  | low oxygen | MIC90 | 22 µM
COC(=O)C1C(OC(C)=O)C(C)C(O)C(C)(O)/C=C(\C)C2=C3C(=C(C)C(=O)c4c(O)c(c(C)c(OC(C)=O)c43)NC(=O)/C(C)=C/C=C\[C@](C)(O)C(O)[C@@H](C)C1O)OCO2 | KM-R |  |  |  |  | MIC | 1.6 µg/mL
Cc1cc(O)c(C(C)C)cc1N1C(=O)C(C)SC1c1cccc(O)c1 | H37Rv | 100 µg/mL |  |  |  | inhibition | inactive
O=C(O)c1ccccc1-c1c2ccc(=O)c(Br)c-2oc2c(Br)c(O)ccc12 | H37Rv | 12.5 µg/mL |  |  | BACTEC | inhibition | -2%
CNC(=S)N(c1ccc(Cl)c(Cl)c1)C1CCCCC1 |  |  |  |  | visual reading | MIC | 400 µg/mL
Cc1cc2c(cc1C)[n+](=O)c(C(=O)C/C(=N\OCCCc1ccccc1)C(=O)Nc1cc(Cl)ccc1Cl)c(C)n2[O-] | H37Rv | 12.5 µg/mL |  |  | BACTEC | inhibition | 19%
CCC1CN(c2c(F)cc3c(=O)c(C(=O)O)cn(C4CC4)c3c2OC)CCN1 | 56 (RFP-resistant) |  |  |  |  | MIC | 32 µg/mL
Cc1ccc(Nc2nc3c(s2)C(=O)c2ccccc2C3=O)c(C)c1 | H37Rv | 12.5 µg/mL |  |  | BACTEC | inhibition | 100%
Cc1cc(O)c(C(C)C)cc1N1C(=O)C(CC(=O)O)SC1c1ccc([N+](=O)[O-])cc1 | H37Rv | 100 µg/mL |  |  |  | inhibition | inactive

A second listing of 6 rows from above:

SMILES	strain	dose	changes	conditions	read by	read-out	result
O=c1[nH][nH]c(=O)c2c1[nH]c(=S)n2Cc1ccccc1	H37Rv				BACTEC	MIC bound	>12.5 µg/mL
CCC(C)N(C(=S)Nc1ccccc1)c1ccc(F)c(Cl)c1		1000 µg/mL			visual reading	zone	11.04 mm
CC(C)c1ncc(C(=O)O)[nH]1	H37Rv					MIC	>6.25 µg/mL
COc1ccc(C2C(C(=O)Nc3ccc(F)cc3)=C(C)NC(C)=C2C(=O)Nc2ccc(F)cc2)cc1	H37Rv					MIC	>6.25 µg/mL
O=C1CCCCCCCCCCCCCCCO1	PZA-R					MIC	>12.8 µg/mL
S=C(Nc1ccccc1)c1ccc(Cl)cc1	H37Rv					MIC	125 µM